Tested on: YF17D

dextran sulfate
SI (=TC50/EC50): >250
